System: trypsin
Experiment: Proteolytic digest with trypsin, HPLC quantification
Details: peptide 1 mg/mL, trypsin 0.1 mg/ml

Substance	intactness after trypsin digestion (after eight hours of digestion, 37° C.)	time within which all molecules were cleaved at least once by trypsin (50 mM Tris pH 7.2, 37° C.)
D-amino acids of NH2-GIRIIPVIIPGYKKWARLIKRGLSRLG-COOH (D-amino acids, retro-inverso) [RI-BMAP-28, retro-inversed form of BMAP-28]	remained completely intact	
H-GLRSLGRKILRAWKKYGPIIVPIIRIG-OH [BMAP-28, natural host defense peptide, a 27 amino acid proteolytic product of the antibacterial peptide BMAP-28 precursor protein]		≤ 30 min
